{"source": "ChEMBL document CHEMBL1212803", "about": "“Resistance-associated mutations to etravirine (TMC-125) in antiretroviral-naïve patients infected with non-B HIV-1 subtypes” (2010)", "key": {"[1]": {"system": "Human immunodeficiency virus 1", "assay": "Antiviral activity against HIV-1 subtype CRF02_AG containing reverse transcriptase A98G/V35T, V60I, I135L, S162A, K173A, Q174K, D177E, I178M, T200A,Q207E, R211K, V245Q, D250E mutant relative to control", "type": "functional"}, "[2]": {"system": "Human immunodeficiency virus 1", "assay": "Antiviral activity against HIV-1 subtype CRF02_AG containing reverse transcriptase Y181C/V35T, V60I, I135V, S162A, K173T, Q174K, N175Y, D177E, T200A, Q207E, R211K, H221Y mutant relative to control", "type": "functional"}}}
{"compound": "O=C1Nc2ccc(Cl)cc2[C@@](C#CC2CC2)(C(F)(F)F)O1", "note": "[EFAVIRENZ]", "values": [{"measurement": "Ratio IC50", "setting": "[1]", "value": 3.6}, {"measurement": "Ratio IC50", "setting": "[2]", "value": 9.9}]}
